Tested on: C. albicans
Experiment: Enhancement of anticandidial activity of clotrimazole, broth assay
Details: in combination; observed only at relatively higher concentration (10 ug/ml) of the compound

CC1OC(Oc2ccc(CC#N)cc2O)C(O)C(O)C1O (stereo not shown) [Niaziridin, NIAZIRIDIN]
Enhancement of antifungal activity of clotrimazole: 5-6 folds

Source: patent publication US6858588B2, “Nitrile glycoside useful as a bioenhancer of drugs and nutrients, process of its isolation from moringa oleifera” (Council of Scientific and Industrial Research, priority 2003, dated 2005)
